The subject of this test is Burkholderia cenocepacia complex K56-2. The following applies: Pip/Tazo alone, 18 h, MHII.

For orientation: MIC means the lowest concentration found to suppress growth. Higher therefore signals a need for much substance. The substance Piperacillin/Tazobactam [Pip/Tazo] gave a minimum inhibitory concentration (MIC) of 64 µg/mL.

For the origin of these results see patent US10907158B2, “Antisense antibacterial compounds and methods” (priority 2015, dated 2021).
